The assay concerns the target AgrA (Staphylococcus aureus, UniProt P0A0I7). Nature of the assay: fluorescence spectroscopy titration of Azan-7 with purified AgrA; supported by EMSA (reduced AgrA-P3 DNA complex). In general terms: In EMSA bound probe runs differently from free probe, usually more slowly.

Amino acid sequences for entries named in this document (tags omitted).
UniProt P0A0I7, whole entry: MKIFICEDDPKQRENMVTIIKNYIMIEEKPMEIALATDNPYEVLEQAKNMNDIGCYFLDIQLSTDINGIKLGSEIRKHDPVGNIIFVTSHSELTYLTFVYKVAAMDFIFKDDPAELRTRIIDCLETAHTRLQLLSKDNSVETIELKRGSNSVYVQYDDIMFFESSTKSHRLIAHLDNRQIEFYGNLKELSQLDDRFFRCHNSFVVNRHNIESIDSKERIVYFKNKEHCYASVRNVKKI

The structures appear in SMILES notation.

In turn, `O=C(O)c1cc(-c2ccccc2)nc(-c2ccccc2)c1O` gave a Kd of 90.9 nM.

The Kd is a measure of binding affinity in units of concentration. A low value points to a tighter complex.

Source of the values: PMC7899991.
